Patent US7964624B1, “Inhibitors of serine proteases” (priority 2005, dated 2011)

Sequences of proteins named here, by UniProt entry; tags and fusion partners are left off. A change or cut given only in a name is not applied to a line headed by its entry. A line that says so, or that is headed by a name, gives the form on record, which may keep a tag or linker. Residues count along the entry.
UniProt Q9WMX2, 1027-1207 limits assumed: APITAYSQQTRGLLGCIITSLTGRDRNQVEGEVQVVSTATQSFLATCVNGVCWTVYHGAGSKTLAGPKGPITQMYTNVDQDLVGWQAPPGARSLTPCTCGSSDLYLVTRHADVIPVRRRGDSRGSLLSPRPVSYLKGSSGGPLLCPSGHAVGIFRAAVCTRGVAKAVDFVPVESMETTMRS
UniProt P27958, 1658-1711 partner limits assumed: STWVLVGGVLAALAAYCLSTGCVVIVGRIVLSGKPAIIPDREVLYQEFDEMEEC
UniProt P27958, 1027-1711 with tags or gaps with the stated changes: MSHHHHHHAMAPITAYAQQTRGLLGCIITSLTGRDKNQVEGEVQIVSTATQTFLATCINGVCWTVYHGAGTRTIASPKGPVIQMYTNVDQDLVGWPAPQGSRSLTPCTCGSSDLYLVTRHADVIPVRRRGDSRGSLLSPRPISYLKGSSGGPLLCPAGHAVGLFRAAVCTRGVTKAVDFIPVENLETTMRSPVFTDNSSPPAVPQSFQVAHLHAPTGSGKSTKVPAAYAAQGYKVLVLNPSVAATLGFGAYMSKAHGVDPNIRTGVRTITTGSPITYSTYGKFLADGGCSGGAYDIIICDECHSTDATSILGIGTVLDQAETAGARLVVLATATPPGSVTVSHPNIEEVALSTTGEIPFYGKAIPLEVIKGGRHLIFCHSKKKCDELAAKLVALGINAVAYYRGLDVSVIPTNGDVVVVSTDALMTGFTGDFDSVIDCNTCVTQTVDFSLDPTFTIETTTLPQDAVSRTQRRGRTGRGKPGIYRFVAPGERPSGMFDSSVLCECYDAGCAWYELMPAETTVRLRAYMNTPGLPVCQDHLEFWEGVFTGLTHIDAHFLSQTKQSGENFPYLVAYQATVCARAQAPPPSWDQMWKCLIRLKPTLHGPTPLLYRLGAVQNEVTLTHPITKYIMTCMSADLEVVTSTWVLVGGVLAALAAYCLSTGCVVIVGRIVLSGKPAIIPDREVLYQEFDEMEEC

Assays:
HCV NS3 protease domain = HCV NS3 protease domain (Hepatitis C virus genotype 1b, UniProt Q9WMX2); assay: HCV NS3 Protease Domain Peptide Cleavage Assay (Enzyme Assay 1), apparent Ki; conditions: read-out: Enzyme Assay 1 (HCV NS3 Protease Domain Peptide Cleavage Assay) activity; apparent Ki class
From the text: A DNA fragment encoding residues Ala^1-Ser^181 of the HCV NS3 protease (GenBank CAB46913) was obtained by PCR from the HCV Con1 replicon plasmid, I377neo/NS3-3′/wt (re-named as pBR322-HCV-Neo in this study) [V. Lohmann et al., Science, 285, pp. 110-113 (1999)] and inserted into pBEV11 (S. Chamber, et al., personal communication) for expression of the HCV proteins with a C-terminal hexa-histidine tag in E. coli. All constructs were confirmed by sequencing.
The expression constructs for the HCV NS3 serine protease domain was transformed into BL21/DE3 pLysS E. coli cells (Stratagene). Freshly transformed cells were grown at 37° C. in a BHI medium (Difco Laboratories) pplemented with 100 μg/mL carbenicillin and 35 μg/mL chloramphenicol to an optical density of 0.75 at 600 nm. Induction with 1 mM IPTG was performed for four hours at 24° C. The cell paste was harvested by centrifugation and flash frozen at −80° C. prior to protein purification. All purification steps were performed at 4° C. Next, 100 g of cell paste was lysed in 1.5 L of buffer A (50 mM HEPES (pH 8.0), 300 mM NaCl, 0.1% n-octyl-β-D-glucopyranoside, 5 mM β-mercaptoethanol, 10% (v/v) glycerol) and stirred for 30 minutes. The lysate was homogenized using a Microfluidizer (Microfluidics, Newton, Mass.), followed by ultra-centrifugation at 54,000×g for 45 minutes. Imidazole was added to the supernatant to a final concentration of 5 mM along with 2 mL of Ni-NTA resin pre-equilibrated with buffer A containing 5 mM imidazole. The mixture was rocked for three hours and washed with 20 column volumes of buffer A plus 5 mM imidazole. The HCV NS3 protein was eluted in buffer A containing 300 mM imidazole. The eluate was concentrated and loaded onto a Hi-Load 16/60 Superdex 200 column, pre-equilibrated with buffer A. The appropriate fractions of the purified HCV protein were pooled and stored at −80° C.
This assay is a modification of that described by Landro, et al. (Landro J A, Raybuck S A, Luong Y C, O'Malley E T, Harbeson S L, Morgenstern K A, Rao G and Livingston D L. Biochemistry 1997, 36, 9340-9348), and uses a peptide substrate (NS5AB), based on the NS5A/NS5B cleavage site for genotype 1a HCV. The substrate stock solution (25 mM) was prepared in DMSO containing 0.2 M DTT and stored at −20° C. A synthetic peptide cofactor (KK4A) was used as a substitute for the central core region of NS4A. The reaction was performed in a 96-well microtiter plate format using 25 ηM to 50 ηM HCV NS3 protease domain in buffer containing 50 mM HEPES pH 7.8, 100 mM NaCl, 20% glycerol, 5 mM DTT and 25 μM KK4A. The final DMSO concentration was no greater than 2% v/v. Reactions were quenched by addition of trifluoroacetic acid (TFA) to yield a final concentration of 2.5%.
The SMSY product was separated from substrate and KK4A using a microbore separation method. The instrument used was a Agilent 1100 with a G1322A degasser, either a G1312A binary pump or a G1311A quaternary pump, a G1313A autosampler, a G1316A column thermostated chamber and a G1315A diode array detector. The column was a Phenomenex Jupiter, 5 μm C18, 300 Å, 150×2 mm, P/O 00F-4053-B0, with a flow-rate of 0.2 mL/min. […] The SMSY product peak was quantitated using the data collected at […].
To evaluate apparent Ki values, all components except the test compound and substrate were pre-incubated for 5-10 minutes at room temperature. […] At the end of the reaction the mixture was quenched, and the extent of reaction was determined as described above. […]

[1] = biological target: full-length hepatitis C viral protein NS3•4A (Hepatitis C virus genotype 1a, UniProt P27958); assay: HCV NS3 Peptide Cleavage Assay (Enzyme Assay 2), apparent Ki; conditions: read-out: Enzyme Assay 2 (HCV NS3 Peptide Cleavage Assay) activity; apparent Ki class

Compound | Ki (HCV NS3 protease domain) [µM] | Ki [1] [µM]
CCC[C@H](NC(=O)[C@@H]1C[C@]2(CC(c3ccc4ccccc4c3)=NO2)CN1C(=O)OCC1c2ccccc2-c2ccccc21)C(=O)C(=O)NC1CC1 | > 0.5 | 
CCC[C@H](NC(=O)[C@@H]1C[C@]2(CC(c3cccc(Cl)c3)=NO2)CN1C(=O)[C@@H](NC(=O)OCc1c(F)cccc1F)C(C)(C)C)C(=O)C(=O)NC1CC1 | 0.1 to 0.5 | 
CCC[C@H](NC(=O)[C@@H]1C[C@]2(CC(c3cccc(Cl)c3)=NO2)CN1C(=O)[C@@H](NC(=O)[C@@H](Cc1c[nH]nn1)C1CCCCC1)C(C)(C)C)C(=O)C(=O)NC1CC1 | 0.1 to 0.5 | < 0.1
CCC[C@H](NC(=O)[C@@H]1C[C@]2(CC(c3cccc(Cl)c3)=NO2)CN1C(=O)[C@@H](NC(=O)CC1CCCCC1)C(C)(C)C)C(=O)C(=O)N[C@H](C)c1cccc(OC)c1 | > 0.5 | > 0.5
CC1CC(CC(=O)NC(C(=O)N2CC3(CC(c4cccc(Cl)c4)=NO3)CC2C(=O)NC(CC2CC2)C(=O)C(N)=O)C(C)(C)C)CC(C)O1 (centres unmarked) | 0.1 to 0.5 | < 0.1
